From article PMC8084484

Target: canine ACE2 (ectodomain), histidine-tagged (dog)
Test: BLI; anti-penta-His (HIS1K) biosensors, Octet RED96, 30°C, shaking 1,000 RPM; reference sample subtracted; 1:2 bivalent binding model with global fit

Substance: SARS-CoV-2 S1 (Sino Biological 40591-V02H) (from UniProt P0DTC2 14-685) (domain or fragment)
- Kd: 19.5 nM
